# Assay results taken from patent US20140323691A1 (UAB RESEARCH FOUNDATION, published 2014).
# Molecular target: T1, BxpB mutant 10M+E125 (Bacillus anthracis)
# T1 chain: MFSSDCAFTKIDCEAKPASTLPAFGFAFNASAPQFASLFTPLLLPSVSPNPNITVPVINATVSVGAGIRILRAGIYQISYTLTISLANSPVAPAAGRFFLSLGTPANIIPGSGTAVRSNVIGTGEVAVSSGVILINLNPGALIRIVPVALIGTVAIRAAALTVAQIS
binder,measurement,value
AFDPNLVGPTLPPIPPFTL (other) [BclA NTD-enhanced green fluorescence protein (eGFP) fusion protein],binding result,binds
